Anti-infective test results gathered from many reports (values: NIAID ChemDB through PubChem).

Common to all: cytotoxicity tests; read-out: CC50

CCn is the concentration with n% toxicity to the cells. Conditions beyond the fields shown may differ between rows. Blank or dashed fields: not listed here.

SMILES | cells | setting | read by | result
C=CCOc1ccc(CNC(C)C(O)c2ccccc2)cc1 | HepG2 | - | cell count / luminescence | >21.8 µM
CCCn1cc(/C=N/Nc2nncs2)c2ccccc21 | Fibroblast L929 cell line | 24 h | MTT | >100 µg/mL
O=c1c(Nc2ccccc2)cn(C2C=CC(O)C2)c(=O)n1C1C=CC(O)C1 | Vero cells | - | MTT | >50 µg/mL
COC(=O)[C@H](C)NP(=O)(OC[C@H]1O[C@@H](n2cc(C)c(=O)[nH]c2=O)C[C@@H]1N=[N+]=[N-])Oc1ccc(OC)cc1 | HUMAN SPERM | - | - | >300 µM
O=C(O)C(Cc1ccc(I)cc1)Nc1nc(-c2ccc(Cl)c(Cl)c2)cs1 | THP-1 monocytes | - | - | <50 µg/mL
C=C[C@@]1(C)CC(=O)[C@]2(O)[C@@]3(C)[C@@H](O)CCC(C)(C)[C@@H]3[C@H](O)[C@H](OC(C)=O)[C@@]2(C)O1 | n4mBid | - | luminescence | >30 µM
N#Cc1cn([C@@H]2O[C@H](CO)[C@@H](O)[C@@H]2O)c2ncnc(N)c12 | HFF | - | visual reading | 8 µM
CCOc1ccc2nc(C)cc(Nc3ccc4c(c3)OCCO4)c2c1 | HepG2 | - | cell count / luminescence | >32.5 µM
COc1cc2oc3c4c(ccc3c(=O)c2c2c1C=CC(C)(C)O2)OCO4 | 1A2 | - | XTT / absorbance | 50.63 µM
Cc1ccc(Cn2c(N)c(C#N)c3c(N)ncnc32)cc1 | HFF | - | visual reading | 32 µM
OCCOC(CO)n1cnc2cc(Cl)c(Cl)cc21 | E6SM | - | - | ≥400 µg/mL
Cc1ccc(C(O)c2cc(C34CC5CC(CC(C5)C3)C4)c3ccccc3n2)cc1 | Mouse fibroblasts | - | MTT / absorbance | >200 µg/mL
COc1cc(N2CCN(c3ccc(N4C[C@H](CNC(C)=O)OC4=O)cc3F)CC2)nc2nccn12 | THP-1 | - | MTT | >100 µg/mL
COc1ccc(S(=O)(=O)N(CC(C)C)C[C@@H](O)[C@H](Cc2ccccc2)NC(=O)c2cc(O)cc(O)c2)cc1 | HEK293T | - | absorbance | >100 µM
C=CCNC(=S)N/N=C(\c1ccccc1)c1ccccn1 | CEM-GFP | - | propidium iodide | >10 µM
C=C(CCC(C)C1CCC2C3CC=C4C[C@@H](O)CC[C@]4(C)C3CC[C@]12C)C(C)C | Hs27 | - | ATP / luminescence | 58 µM
Cc1ccc(Nc2c[nH]c(=O)[nH]c2=O)cc1 | Huh7 cells | - | MTT | >50 µg/mL
Cc1cccc(C)c1Nc1nc(-c2ccccc2)cs1 | VERO | - | luminescence | >100 µM
CCOC(=O)c1cnc2c(cnn2CC)c1NN=C(C)C | n4mBid | - | luminescence | >60 µM
O=C(CO)Nc1nc(-c2ccccn2)cs1 | VERO | - | luminescence | >100 µM
S=C(N/N=C(/c1ccccc1)c1ccccn1)Nc1ccccc1 | CEM-GFP | - | propidium iodide | 0.9 µM
Cc1c(N)nc(N)nc1OCCOCP(=O)(O)O | HEPAD79 | - | - | >360 µM
O=c1[nH]c2ccccc2n1C1CCN(CCCC(c2ccc(F)cc2)c2ccc(F)cc2)CC1 | n4mBid | - | luminescence | 7 µM
CO[C@H]1/C=C/O[C@@]2(C)Oc3c(C)c(O)c4c(O)c(c(/C=N/N5CCN(C)CC5)c(O)c4c3C2=O)NC(=O)/C(C)=C\C=C\[C@H](C)[C@H](O)[C@@H](C)[C@@H](O)[C@@H](C)[C@H](OC(C)=O)[C@@H]1C | Vero cells | - | - | 89 µg/mL
Fc1cccc(F)c1Nc1nc(-c2ccccn2)cs1 | VERO | - | luminescence | 4 µM
O=C(O)P(=O)(O)O | TR-14 | - | - | >200 µg/mL
c1ccc(Nc2nc(-c3nccs3)cs2)nc1 | VERO | - | luminescence | 31 µM
Fc1cccc(Cn2cc(/C=N/Nc3nncs3)c3ccccc32)c1 | Fibroblast L929 cell line | 24 h | MTT | >100 µg/mL
COC(=O)[C@H](C)NP(=O)(OC[C@H]1O[C@@H](N2C(=O)NC(=O)C(C)(Br)C2OC)C[C@@H]1N=[N+]=[N-])Oc1ccc(F)cc1 | HUMAN SPERM | - | - | 15 µM
Cc1ccc(Cn2cc(/C=N/Nc3nncs3)c3ccccc32)cc1 | Fibroblast L929 cell line | 24 h | MTT | >100 µg/mL
CNC(=S)N/N=C(\c1ccccc1)c1ccccn1 | CEM-GFP | - | propidium iodide | >10 µM
c1ccc(Nc2nc(-c3ccccn3)cs2)cc1 | VERO | - | luminescence | 16 µM
OC[C@H]1O[C@@H](n2cnc3cc(Cl)c(Cl)cc32)[C@@H](O)[C@H]1O | E6SM | - | - | 100 µg/mL
O=C1C[C@@H](c2ccc(O)cc2)Oc2cc(O)c(-c3c(O)cc4c(c3O)C(=O)C[C@@H](c3ccc(O)cc3)O4)c(O)c21 | BSC-1 | - | visual reading | <23 µg/mL
O=C(O)P(=O)(O)O | TPA-stimulated BCBL-1 | - | - | ≥140 µM
Cc1cccc2c1OP(=O)(OC[C@H]1O[C@@H](n3cc(/C=C/Br)c(=O)[nH]c3=O)C[C@@H]1O)OC2 | HELF | - | - | >128 µg/mL
Cc1nnc(C(C)C)n1C1C[C@H]2CC[C@@H](C1)N2CC[C@H](NC(=O)C1CCC(F)(F)CC1)c1ccccc1 | PM1 | - | MTS | >10 µM
Fc1ccc(C(c2ccc(F)cc2)N2CCN(C/C=C/c3ccccc3)CC2)cc1 | n4mBid | - | luminescence | 18 µM
Clc1cc2nc[nH]c2cc1Cl | E6SM | - | - | ≥40 µg/mL
Cc1cccc2c1OP(=O)(OC[C@H]1O[C@@H](n3cc(/C=C/Br)c(=O)[nH]c3=O)C[C@@H]1OC(=O)[C@@H](N)Cc1ccccc1)OC2 | HELF | - | - | 106 µg/mL
COc1c(O)cc(O)c2c(=O)c3cc(O)ccc3oc12 | 1A2 | - | XTT / absorbance | 73.22 µM
Cc1cccc2c1OP(=O)(OC[C@H]1O[C@@H](n3cc(/C=C/Br)c(=O)[nH]c3=O)C[C@@H]1OC(=O)[C@@H]1CCCN1)OC2 | HELF | - | - | 94.7 µg/mL
C[C@@]1(O)[C@H](O)[C@@H](CO)O[C@H]1n1ccc(N)nc1=O | Huh 5-2 | - | - | >30 µM
c1ccc(-c2ccccc2OCCCCN2CCCCC2)cc1 | HepG2 | - | cell count / luminescence | >24.5 µM
Nc1nc(=O)n([C@@H]2CC[C@H](CO)O2)cc1F | 2.2.15 | - | - | 42 µM
O=C1c2cccc(O)c2C(=O)c2cccc(O)c21 | MRC-5 | - | - | >41.6 µM
C(=N\Nc1nncs1)/c1c[nH]c2ccccc12 | Fibroblast L929 cell line | 24 h | MTT | 62.68 µg/mL
Nc1nc(OCCOCP(=O)(O)O)cc(=O)[nH]1 | HEPAD79 | - | - | >329 µM
O=C(Nc1nc(-c2ccccn2)cs1)NC1CCCC1 | VERO | - | luminescence | 41 µM
N#Cc1cn([C@@H]2O[C@H](CO)[C@@H](O)[C@H]2O)c2ncnc(N)c12 | HFF | - | visual reading | 0.03 µM
CCCCOc1ccc(Nc2cn(C3C=CC(O)C3)c(=O)n(C3C=CC(O)C3)c2=O)cc1 | Vero cells | - | MTT | >50 µg/mL
CC(=O)c1cc(O)c(O)c(=O)cc1C | PHH | 3 d | MTS | >100 µM
Nc1ncnc2c1ncn2CCOCP(=O)(O)O | SupT1 | - | - | 43 µM
CC1=NN=C(C)C2C=C(C#N)C(Cl)=C12 | MOUSE EMT6 | - | - | 10.4 µM
Cc1cccc(Cn2cc(/C=N/Nc3nncs3)c3ccccc32)c1 | Fibroblast L929 cell line | 24 h | MTT | >100 µg/mL
C#Cc1c(C(N)=O)ncn1[C@@H]1O[C@H](CO)[C@@H](O)[C@H]1O | PRK | - | - | 0.37 µg/mL
OCCOC(CCO)n1cnc2cc(Cl)c(Cl)cc21 | E6SM | - | - | ≥200 µg/mL
CO[C@H]1/C=C/O[C@@]2(C)Oc3c(C)c(O)c4c(O)c(c(/C=N/N5CCN(C)CC5)c(O)c4c3C2=O)NC(=O)/C(C)=C\C=C\[C@H](C)[C@H](O)[C@@H](C)[C@@H](O)[C@@H](C)[C@H](OC(C)=O)[C@@H]1C | RAW 264.7 | - | MTT | 0.01 µM
CCc1ccc(OCCCCN(C)Cc2ccccc2)cc1 | HepG2 | - | cell count / luminescence | >22.4 µM
CC(=O)CCC(=O)O[C@H]1C[C@H](n2cc(/C=C/Br)c(=O)[nH]c2=O)O[C@@H]1COP1(=O)OCc2cccc(C)c2O1 | HELF | - | - | 128 µg/mL
Nc1nc2c(ncn2COCCO)c(=O)[nH]1 | SupT1 | - | - | >250 µM
CCNC(=S)N/N=C(\c1ccccc1)c1ccccn1 | CEM-GFP | - | propidium iodide | >10 µM
CC(=O)NC[C@H]1CN(c2ccc(N3CCOCC3)c(F)c2)C(=O)O1 | THP-1 | - | MTT | >100 µg/mL
CC(C)[Si]1(C(C)C)OC[C@H]2O[C@@H](n3cnc4cc(Cl)c(Cl)cc43)[C@H](O)[C@H]2O[Si](C(C)C)(C(C)C)O1 | E6SM | - | - | ≥40 µg/mL
Cc1cccc(Nc2c[nH]c(=O)[nH]c2=O)c1 | Huh7 cells | - | MTT | >50 µg/mL
COc1ccccc1-c1csc(Nc2ccccc2C(F)(F)F)n1 | VERO | - | luminescence | 54 µM
NNC(=O)c1ccncc1 | Mouse fibroblasts | - | MTT / absorbance | >200 µg/mL
O=C1c2ccccc2C(=O)c2ccccc21 | MRC-5 | - | - | >48 µM
Nc1nc2c(ncn2CCC(CO)CO)c(=O)[nH]1 | TPA-stimulated BCBL-1 | - | - | 45 µM
S=C(NCCc1ccccn1)Nc1ccc(Br)cn1 | HUMAN SPERM | - | - | >300 µM
O=c1[nH]c(=O)n([C@H]2C[C@H](O)[C@@H](CO)O2)cc1/C=C/Br | U87MG | - | - | 185 µg/mL
COc1cc(O)c2c(c1)C(=O)c1cc(C)cc(O)c1C2=O | MRC-5 | - | - | >35.2 µM
Nc1ccn([C@@H]2CC[C@H](CO)O2)c(=O)n1 | BFU-E | - | - | 3 µM
N#Cc1c(N)nc(N)nc1OCCOCP(=O)(O)O | HepAD38 | - | - | >346 µM
CC(=O)NC[C@H]1CN(c2ccc(N3CCN(Cc4nc5ccccc5[nH]4)CC3)c(F)c2)C(=O)O1 | THP-1 | - | MTT | >100 µg/mL
O=c1cc(-c2ccc(Oc3c(O)cc4oc(-c5ccc(O)cc5)cc(=O)c4c3O)cc2)oc2cc(O)cc(O)c12 | BSC-1 | - | neutral red | <11 µg/mL
O=c1c2cccc(O)c2oc2cc(O)cc(O)c12 | 1A2 | - | XTT / absorbance | 223.5 µM
O=c1[nH]c(=O)n([C@H]2C[C@H](O)[C@@H](COP3(=O)OCc4cc(-c5ccccc5)ccc4O3)O2)cc1/C=C/Br | HELF | - | - | 16.5 µg/mL
Cc1cccc(C)c1Nc1nnc(-c2ccccn2)s1 | VERO | - | luminescence | 60 µM
COc1nc(OC(F)(F)F)c(NC(=O)C2CCC3C4CN(C(=O)OC(C)(C)C)C5=CC(=O)CC[C@]5(C)C4CC[C@]23C)cc1Br | THP-1 | - | ATP / luminescence | >30 µM
FC(F)(F)c1ccccc1Nc1nc(-c2ccccc2S)cs1 | VERO | - | luminescence | 13 µM
CC1=NN=C(C)C2C=C([N+](=O)[O-])C(Cl)=C12 | MOUSE EMT6 | - | - | 13.5 µM
Nc1ccn(C[C@@H](CO)OCP(=O)(O)O)c(=O)n1 | TPA-stimulated BCBL-1 | - | - | 113 µM
NC(=NC1CCCCC1)c1ccc(-c2ccc(-c3ccc(C(N)=NC4CCCCC4)cc3)o2)cc1 | A2780 ovarian carcinoma | - | - | 4.8 µM
COc1cc(-c2cc(OC)c3c(c2)OCO3)ccc1O | 1A2 | - | XTT / absorbance | 67.82 µM
CCCCc1oc2ccccc2c1C(=O)c1cc(I)c(OCCN(CC)CC)c(I)c1 | n4mBid | - | luminescence | 14 µM
CCCCC(O)c1cc(C23CC4CC(CC(C4)C2)C3)c2ccccc2n1 | Mouse fibroblasts | - | MTT / absorbance | >200 µg/mL
N#Cc1cccc(Cn2cc(/C=N/Nc3nncs3)c3ccccc32)c1 | Fibroblast L929 cell line | 24 h | MTT | >100 µg/mL
CC(=O)O[C@@]12C[C@@H](C)[C@@]3(O)[C@@H](C=C(CO)C[C@]4(O)C(=O)C(C)=C[C@@H]34)[C@@H]1C2(C)C | J-Lat 10.6 | - | MTT | >100 µM
O=c1[nH]cnc2c1ncn2[C@H]1CC[C@@H](CO)O1 | HELA-CD4+ | - | - | 1.9 µM
NC(=O)c1ncn([C@@H]2O[C@H](CO)[C@@H](O)[C@H]2O)n1 | PRK | - | - | 5.6 µg/mL
C=CCC(O)c1cc(C23CC4CC(CC(C4)C2)C3)c2ccccc2n1 | Mouse fibroblasts | - | MTT / absorbance | >200 µg/mL
Nc1nccc2c1ncn2[C@@H]1C[C@H](CO)[C@@H](O)[C@H]1O | PRK | - | - | 2.2 µg/mL
Nc1cc(OCCOCP(=O)(O)O)ncn1 | HEPAD79 | - | - | >402 µM

The last 9 rows once more:

SMILES,cells,setting,read by,result
CCCCc1oc2ccccc2c1C(=O)c1cc(I)c(OCCN(CC)CC)c(I)c1,n4mBid,-,luminescence,14 µM
CCCCC(O)c1cc(C23CC4CC(CC(C4)C2)C3)c2ccccc2n1,Mouse fibroblasts,-,MTT / absorbance,>200 µg/mL
N#Cc1cccc(Cn2cc(/C=N/Nc3nncs3)c3ccccc32)c1,Fibroblast L929 cell line,24 h,MTT,>100 µg/mL
CC(=O)O[C@@]12C[C@@H](C)[C@@]3(O)[C@@H](C=C(CO)C[C@]4(O)C(=O)C(C)=C[C@@H]34)[C@@H]1C2(C)C,J-Lat 10.6,-,MTT,>100 µM
O=c1[nH]cnc2c1ncn2[C@H]1CC[C@@H](CO)O1,HELA-CD4+,-,-,1.9 µM
NC(=O)c1ncn([C@@H]2O[C@H](CO)[C@@H](O)[C@H]2O)n1,PRK,-,-,5.6 µg/mL
C=CCC(O)c1cc(C23CC4CC(CC(C4)C2)C3)c2ccccc2n1,Mouse fibroblasts,-,MTT / absorbance,>200 µg/mL
Nc1nccc2c1ncn2[C@@H]1C[C@H](CO)[C@@H](O)[C@H]1O,PRK,-,-,2.2 µg/mL
Nc1cc(OCCOCP(=O)(O)O)ncn1,HEPAD79,-,-,>402 µM